Results of unrelated studies side by side (data: NIAID ChemDB).

Shared fields: whole-cell or culture tests; organism: HIV-1; method: p24; measure: fold resistance

Rows are shuffled and stem from different studies. Fold resistance has wild type as its base. An empty or dashed field is not shown.

structure | changes | cells | strain | value
Nc1ccn([C@H]2CC[C@@H](CO)O2)c(=O)n1 | RT-P119S V179D L214F | MT-2 | RT P119S V179D L214F | 2.1
O=c1[nH]cnc2c1ncn2[C@H]1CC[C@@H](CO)O1 | RT-L74V | C8166 | - | 5
CCN(c1ncccc1NC(C)(C)C)C1CCN(C(=O)c2cc3cc(NS(C)(=O)=O)ccc3[nH]2)CC1 | RT-T139I | - | IIIB | 2.02
CC(C)(C)NC(=O)[C@@H]1C[C@@H]2CCCC[C@@H]2CN1C[C@@H](O)[C@H](Cc1ccccc1)NC(=O)[C@H](CC(N)=O)NC(=O)c1ccc2ccccc2n1 | MDR | PBMC | MM | 93
CC(C)(c1ncc(-c2ccc(Cl)cc2)o1)N1CCN(C[C@@H](O)C[C@@H](Cc2nnco2)C(=O)N[C@H]2c3ccccc3OC[C@H]2O)[C@H](C(=O)NCC(F)(F)F)C1 | PR-L10I N37S R41K M46I I54V I62V L63P A71V V77I V82A L90M I93L | MT-4 | Q-60 Clinical isolate | 0.248
O=C(N[C@H]1c2ccccc2OC[C@H]1O)[C@H](Cc1cccnc1)C[C@H](O)CN1CCN(Cc2ccn(-c3ccc(F)c(F)c3F)c2)C[C@H]1C(=O)NCC(F)(F)F | PR-L10I M46I I54V Q58E L63P I64V V77I V82F I84V L90M I93L | MT-4 | K-60C Clinical isolate | ≥1.8
Cc1cn([C@H]2C[C@H](N=[N+]=[N-])[C@@H](CO)O2)c(=O)[nH]c1=O | MDR | PBMC | JSL | 28
CC(C)(C)OC(=O)N[C@@H](Cc1ccccc1)[C@H](O)CNC[C@@H](O)[C@H](Cc1ccc(OCC(=O)N2CCOCC2)cc1)NC(=O)OC(C)(C)C | PR-A71T | MT-2 | NL4-3 | 1.25
Cc1csc(NC(=S)N[C@H](C)c2cccc3ccccc23)n1 | RT-Y181C | PBMC | NNRTI-resistant (RT Y181C) A17 | 145
Cc1nnc(C[C@H](C[C@H](O)CN2CCN(C(C)(C)c3ncc(-c4ccc(Cl)cc4)o3)C[C@H]2C(=O)NCC(F)(F)F)C(=O)N[C@H]2c3ccccc3OC[C@H]2O)o1 | PR-L10I M46I I54V Q58E L63P I64V V77I V82F I84V L90M I93L | MT-4 | K-60 Clinical isolate | 0.124
O=c1[nH]cnc2c1ncn2[C@H]1CC[C@@H](CO)O1 | RT-M184V | CBMC | HXB2D (RT-M184V) | 2.42
Cc1cn([C@H]2C[C@H](N=[N+]=[N-])[C@@H](CO)O2)c(=O)[nH]c1=O | RT-E89G | PBMC | - | 10
Cc1nnc(C[C@H](C[C@H](O)CN2CCN(Cc3ccc(-c4ccc(Cl)cc4)o3)C[C@H]2C(=O)NCC(F)(F)F)C(=O)N[C@H]2c3ccccc3OC[C@H]2O)o1 | PR-L10I N37S R41K M46I I54V I62V L63P A71V V77I V82A L90M I93L | MT-4 | Q-60 Clinical isolate | 0.49
CC(C)Nc1cccnc1N1CCN(C(=O)c2cc3cc(NS(C)(=O)=O)ccc3[nH]2)CC1 | RT-L100I V106A G190A | H9 | B9 (RT L100I V106A G190A) | >55.6
Clc1nc(Cl)c2[nH]cnc2n1 | RT-M184V | CD4+HELA + HeLa | - | 0.455
CC(C)CN(C[C@@H](O)[C@H](Cc1ccccc1)NC(=O)[C@H](CC(N)=O)NC(=O)c1ccc2ccccc2n1)C(=O)NC(C)(C)C | PR-M46I V82T I84V | MT-4 | NL4-3 | 4
COc1cncc(-c2cnc(C(C)(C)N3CCN(C[C@@H](O)C[C@@H](Cc4nnc(-c5ccccc5)o4)C(=O)N[C@H]4c5ccccc5OC[C@H]4O)[C@H](C(=O)NCC(F)(F)F)C3)o2)c1 | PR-L10I M46I I54V Q58E L63P I64V V77I V82F I84V L90M I93L | MT-4 | K-60 Clinical isolate | 1
Cc1cccc(NC(=S)NC[C@H](C)c2ccccc2)n1 | RT-Y181C | PBMC | NNRTI-resistant (RT Y181C) A17 | 35
Cc1cccc(C)c1OCC(=O)N[C@@H](Cc1ccccc1)[C@H](O)CN1CC[C@@H](Sc2ccncc2)C[C@H]1C(=O)NC(C)(C)C | PR-V32I A71V | C8166 | BILA1906-resistant (PR V32I A71V) | 4
Cc1cn([C@H]2C[C@H](N=[N+]=[N-])[C@@H](CO)O2)c(=O)[nH]c1=O | RT-P119S V179D L214F | MT-2 | RT P119S V179D L214F | 1.2
Cc1cn([C@H]2C[C@H](N=[N+]=[N-])[C@@H](CO)O2)c(=O)[nH]c1=O | RT-M41L L74V V106A T215F | C8166 | - | 3
CC(C)[C@H](NC(=O)c1ccc2ccccc2n1)C(=O)N[C@@H](Cc1ccccc1)[C@H](O)CN1CC[C@@H](SCc2cccnc2)C[C@H]1C(=O)NC(C)(C)C | PR-I84V | C8166 | BILA2185-resistant (PR I84V) | 2
CCc1cc(CCc2nc3c(Cl)ccc(Cl)c3o2)c(=S)[nH]c1C | RT-K103N Y181C | H9 | A17 | 8
Cc1nnc(C[C@H](C[C@H](O)CN2CCN(C(C)(C)c3ncc(-c4ccc(F)cc4)o3)C[C@H]2C(=O)NCC(F)(F)F)C(=O)N[C@H]2c3ccccc3OC[C@H]2O)o1 | PR-L10I M46I I54V Q58E L63P I64V V77I V82F I84V L90M I93L | MT-4 | K-60 Clinical isolate | 1
Cc1cn([C@H]2C[C@H](N=[N+]=[N-])[C@@H](CO)O2)c(=O)[nH]c1=O | RT-P236L | Macrophage + Monocytes/macrophages | BaL | 3
O=C(N[C@H]1c2ccccc2OC[C@H]1O)[C@H](Cc1cccnc1)C[C@H](O)CN1CCN(Cc2ccn(-c3ccc(Cl)cc3)c2)C[C@H]1C(=O)NCC(F)(F)F | PR-L10I M46I I54V Q58E L63P I64V V77I V82F I84V L90M I93L | MT-4 | K-60C Clinical isolate | ≥1.8
CCc1cc(CCc2nc3ccccc3o2)c(=S)[nH]c1C | RT-K103N Y181C | H9 | A17 | 250
CC(C)(C)NC(=O)[C@@H]1C[C@@H]2CCCC[C@@H]2CN1C[C@@H](O)[C@H](Cc1ccccc1)NC(=O)[C@H](CC(N)=O)NC(=O)c1ccc2ccccc2n1 | PR-L10R | MT-4 | NL4-3 | 2
O=c1[nH]cnc2c1ncn2[C@H]1CC[C@@H](CO)O1 | RT-A62V V75I F77L F116Y Q151M | MT-2 | RT A62V/V75I/F77L/F116Y/Q151M | 13.3
CC(C)(c1ncc(-c2ccc(Cl)cc2)o1)N1CCN(C[C@@H](O)C[C@@H](Cc2nnc(-c3ccccc3)o2)C(=O)N[C@H]2c3ccccc3OC[C@H]2O)[C@H](C(=O)NCC(F)(F)F)C1 | PR-L10I N37S R41K M46I I54V I62V L63P A71V V77I V82A L90M I93L | MT-4 | Q-60 Clinical isolate | ≥2
Nc1ccn([C@H]2CC[C@@H](CO)O2)c(=O)n1 | RT-M184V | MT-4 | HXB2D (RT-M184V) | 5.56
CC(C)=CCN1Cc2cccc3[nH]c(=S)n(c23)C[C@@H]1C | RT-E89G | PBMC | RT-M184V | 0.13
CC(C)[C@H](NC(=O)c1ccccn1)C(=O)N[C@@H](Cc1ccccc1)[C@H](O)[C@H](O)[C@H](Cc1ccccc1)NC(=O)[C@@H](NC(=O)c1ccccn1)C(C)C | PR-R8Q | MT-4 | P19 (PR-R8Q) | 2
O=c1[nH]cnc2c1ncn2[C@H]1CC[C@@H](CO)O1 | RT-V75I | PBMC | Recombinant | 0.2
CC(=O)c1ccc(C)cc1NC(C(N)=O)c1c(Cl)cccc1Cl | RT-Y181C | MT-4 | HE/NEV(RT-Y181C) | >3703
Cc1ccc(NC(=S)N[C@H](C)c2cccc3ccccc23)nc1 | RT-Y181C K103N | PBMC | NNRTI-resistant (RT Y181C K103N) A17V | 236
CCCCN1C(=O)C(CC2CCCCC2)NC(=O)C12CCN(Cc1ccc3c(c1)OCCO3)CC2 | MDR | PBMC | TM | >25
Cc1ccc(NC(=S)NC[C@H](C)c2ccccc2)nc1 | RT-Y181C K103N | PBMC | NNRTI-resistant (RT Y181C K103N) A17V | 613
O=C(N[C@H]1c2ccccc2OC[C@H]1O)[C@H](Cc1cccnc1)C[C@H](O)CN1CCN(Cc2ccn(-c3ccccc3)c2)C[C@H]1C(=O)NCC(F)(F)F | PR-L10I M46I I54V Q58E L63P I64V V77I V82F I84V L90M I93L | MT-4 | K-60C Clinical isolate | 2.06
Cc1cn([C@H]2C[C@H](N=[N+]=[N-])[C@@H](CO)O2)c(=O)[nH]c1=O | RT-L100I V106A G190A | H9 | B9 (RT L100I V106A G190A) | ~1
Cc1cn([C@H]2C=C[C@@H](CO)O2)c(=O)[nH]c1=O | MDR | PBMC | MM | 6
O=C(N[C@H]1c2ccccc2OC[C@H]1O)[C@H](Cc1cccnc1)C[C@H](O)CN1CCN(Cc2ccn(-c3cc(Cl)c(Cl)c(Cl)c3)c2)C[C@H]1C(=O)NCC(F)(F)F | PR-L10I M36I N37D M46I R57K L63P A71V G73S I84V L90M I93L | MT-4 | V-18C Clinical isolate | ≥1.875
CC(C)(c1ncc(-c2ccc(F)cc2)o1)N1CCN(C[C@@H](O)C[C@@H](Cc2nnc(-c3ccccc3)o2)C(=O)N[C@H]2c3ccccc3OC[C@H]2O)[C@H](C(=O)NCC(F)(F)F)C1 | PR-L10I M46I I54V Q58E L63P I64V V77I V82F I84V L90M I93L | MT-4 | K-60 Clinical isolate | 1

For reference, 6 entries again:

| structure | changes | cells | strain | value |
|---|---|---|---|---|
| CCCCN1C(=O)C(CC2CCCCC2)NC(=O)C12CCN(Cc1ccc3c(c1)OCCO3)CC2 | MDR | PBMC | TM | >25 |
| Cc1cn([C@H]2C[C@H](N=[N+]=[N-])[C@@H](CO)O2)c(=O)[nH]c1=O | MDR | PBMC | JSL | 28 |
| O=c1[nH]cnc2c1ncn2[C@H]1CC[C@@H](CO)O1 | RT-A62V V75I F77L F116Y Q151M | MT-2 | RT A62V/V75I/F77L/F116Y/Q151M | 13.3 |
| CC(C)(c1ncc(-c2ccc(Cl)cc2)o1)N1CCN(C[C@@H](O)C[C@@H](Cc2nnc(-c3ccccc3)o2)C(=O)N[C@H]2c3ccccc3OC[C@H]2O)[C@H](C(=O)NCC(F)(F)F)C1 | PR-L10I N37S R41K M46I I54V I62V L63P A71V V77I V82A L90M I93L | MT-4 | Q-60 Clinical isolate | ≥2 |
| O=C(N[C@H]1c2ccccc2OC[C@H]1O)[C@H](Cc1cccnc1)C[C@H](O)CN1CCN(Cc2ccn(-c3ccc(Cl)cc3)c2)C[C@H]1C(=O)NCC(F)(F)F | PR-L10I M46I I54V Q58E L63P I64V V77I V82F I84V L90M I93L | MT-4 | K-60C Clinical isolate | ≥1.8 |
| O=C(N[C@H]1c2ccccc2OC[C@H]1O)[C@H](Cc1cccnc1)C[C@H](O)CN1CCN(Cc2ccn(-c3ccc(F)c(F)c3F)c2)C[C@H]1C(=O)NCC(F)(F)F | PR-L10I M46I I54V Q58E L63P I64V V77I V82F I84V L90M I93L | MT-4 | K-60C Clinical isolate | ≥1.8 |